Data from paper PMC9698663, “Testing Serum Albumins and Cyclodextrins as Potential Binders of the Mycotoxin Metabolites Alternariol-3-Sulfate, Alternariol-9-Monomethylether and Alternariol-9-Monomethylether-3-Sulfate” (International Journal of Molecular Sciences, 2022).
Structures can show the parent of a compound that is named as a salt.

Assays:
[1] = Extraction of mycotoxins from buffer by β-CD bead polymer; conditions: BBP 10 mg/mL; mycotoxin 5 μM; sodium acetate buffer 0.05 M, pH 5.0; 40 min
[2] = Extraction of mycotoxins from buffer by γ-CD bead polymer; conditions: GBP 10 mg/mL; mycotoxin 5 μM; sodium acetate buffer 0.05 M, pH 5.0; 40 min

SMILES | mycotoxin removed from the buffer by BBP [1] | mycotoxin extracted by GBP [2]
COc1cc(O)c2c(=O)oc3cc(OS(=O)(=O)O)cc(C)c3c2c1 [AMS, alternariol-9-monomethylether-3-sulfate ammonium salt] | approximately 95% | approximately 90%
COc1cc(O)c2c(=O)oc3cc(O)cc(C)c3c2c1 [AME, alternariol-9-monomethylether] | approximately 95% | approximately 90%
Cc1cc(OS(=O)(=O)O)cc2oc(=O)c3c(O)cc(O)cc3c12 [AS, Alternariol-3-sulfate ammonium salt] | approximately 95% | approximately 90%
Cc1cc(O)cc2oc(=O)c3c(O)cc(O)cc3c12 [AOH, Alternariol] | approximately 95% | approximately 90%
